Anti-infective test results gathered from many reports (values: NIAID ChemDB through PubChem).

Shared fields: growth or infection tests; organism: Mycobacterium tuberculosis

A number after MIC or MFC names an inhibition level or a share of isolates.

compound	strain	read by	endpoint	dose	result
CN1CCN(Cc2cccc(NC(=O)c3ccc(Cl)cc3)c2)CC1	103471		MIC		>16 µg/mL
CC1(n2[nH]c(=O)n(-c3ccccc3)c2=O)Cn2c(=O)n(-c3ccccc3)c(=O)n2-c2ccccc21	H37Rv	resazurin	inhibition	6.25 µg/mL	1%
c1ccc(Oc2ccc(-c3nnc(-c4ccncc4)o3)cc2)cc1	H37Rv	resazurin	MIC		1.4 µg/mL
O=C(c1ccc(S(=O)c2ccccc2)cc1)C(Cl)Cl	H37Rv		MIC		3.125 µg/mL
O=c1oc2ccccc2cc1-c1cs/c(=N/N=C/c2ccc(F)cc2)n1C1CCCCC1	H37Rv		MIC		>6.25 µg/mL
CCn1c2ccccc2c2nnc(NCCCO)nc21	H37Rv	resazurin	inhibition	6.25 µg/mL	38%
CCC1CCC2CN(/N=C/c3c4c(O)c5c(O)c(C)c6c(c5c3O)C(=O)[C@@](C)(O/C=C/[C@H](OC)[C@@H](C)[C@@H](OC(C)=O)[C@H](C)[C@H](O)[C@H](C)[C@@H](O)[C@@H](C)/C=C/C=C(/C)C(=O)N4)O6)CCN2C1	H37Rv		MIC		0.03 µg/mL
Cc1[nH]n(-c2ccc(OCc3ccccc3)nn2)c(=O)c1Cc1ccccc1	H37Rv	visual reading	MIC		1 µg/mL
O=C(O)[C@@H]1C[C@@H](O)CCN1	H37Rv	BACTEC	MIC		≥12.8 µg/mL
FC(F)(F)c1nc2c(Cl)cc(Cl)cc2[nH]1	My 331/88		MIC		32 µM
c1ccc(Oc2ccc(-c3nnc(-c4cccnc4)o3)cc2)cc1	H37Rv	resazurin	MIC		1.4 µg/mL
O=C(CCl)c1ccc(Cc2ccc(C(=O)CCl)cc2)cc1	H37Rv		MIC		25 µg/mL
NNC(=O)c1ccncc1	H37Rv (ATCC 27294)	broth dilution	MIC		0.03 µg/mL
CCCCCOc1ccccc1NC(=O)OC(COCC)CN1CCCCC1	My 331/88		MIC		62.5 µM
COc1ccc(/C(Cl)=C(\C=O)c2ccc(OC)c(OC)c2)cc1OC	H37Rv	BACTEC	inhibition	12.5 µg/mL	0%
O=C(c1ccc(Oc2ccc(C(=O)C(Br)Br)cc2)cc1)C(Br)Br	H37Rv		MIC		25 µg/mL
FC(F)(F)C(F)(F)C(F)(F)c1nc2c(Br)c(Br)c(Br)c(Br)c2[nH]1	My 331/88		MIC		8 µM
O=C(c1ccc(Oc2ccc(C(=O)C(Cl)Cl)cc2)cc1)C(Cl)Cl	H37Rv		MIC		1.56 µg/mL
COc1ccc2[nH]c(=O)c(CO)c(CO)c2c1	H37Rv	BACTEC	inhibition	12.5 µg/mL	0%
FC(F)(F)c1nc2c(Br)c(Br)c(Br)c(Br)c2[nH]1	My 331/88		MIC		32 µM
O=C1O[C@H]2C(O[C@@H](N(O)c3ccccc3)[C@@H]2O)C1O	H37Rv	resazurin	MIC bound		>6.25 µg/mL
COc1ccc(-c2csc(/C(C#N)=C/c3ccc(O)c(OC)c3)n2)cc1	H37Rv	visual reading	MIC		8 µg/mL
O=C(N=Nc1c(O)n(C(c2ccc(Cl)cc2)N2C(=O)C(=O)c3ccccc32)c2ccc(Cl)cc12)c1ccc(-n2cc(-c3ccccc3)nn2)cc1O	H37Rv	resazurin	MIC		0.39 µg/mL
CCCCCCCCO[C@@H]1O[C@H]([C@@H](COCc2ccccc2)O[C@H]2O[C@H](CO)[C@@H](O)[C@@H]2O)[C@H](OCc2ccccc2)[C@H]1OCc1ccccc1	H37Ra		MIC		32 µg/mL
NNC(=O)c1ccc(-n2cc(-c3ccccc3)nn2)cc1O	H37Rv	resazurin	MIC		12.5 µg/mL
O=C(c1ccc(Cc2ccc(C(=O)C(Br)Br)cc2)cc1)C(Br)Br	H37Rv		MIC		12.5 µg/mL
Cc1c[nH]c(C(=O)O)c1-c1cc2c(-c3ccccc3)nc3ccccc3n2c1	H37Rv		MIC		>12.5 µg/mL
CC1COc2c(N3CCN(C)CC3)c(F)cc3c(=O)c(C(=O)O)cn1c23	82 strains		MIC90		2 µg/mL
Cc1nc(N)c2ncn([C@@H]3O[C@H](CO)[C@@H](O)[C@H]3O)c2n1	ATCC 35838 (rifampicin-resistant)		MIC		<1.56 µg/mL
NNC(=O)c1ccncc1	H37Rv	agar	MIC		0.217 µM
O=C(NN=Cc1ccccc1O)c1ccc(-n2cc(-c3ccccc3)nn2)cc1O	H37Rv	resazurin	MIC		12.5 µg/mL
O=C(Nc1ccccc1CN1CCOCC1)c1ccc(Cl)cc1	103471		MIC		>16 µg/mL
O=c1cc[nH]c2c1ccc1[nH]ccc(=O)c12	H37Rv	BACTEC	inhibition	12.5 µg/mL	40%
Cc1ccc(/C=C(\C(N)=S)c2nc3ncccc3n2C)c(C)c1	109		MIC		31.2 µg/mL
Cl.Cl.Cl.Cl.NCCCC(N)C(=O)NC(CCCN)C(=O)NC(CCCN)C(=O)O	H37Rv	BACTEC	inhibition	12.5 µg/mL	10%
CN1/C(=C/C(=O)NN)N(C)c2ncccc21	193		MIC		250 µg/mL
COc1cc([C@@H]2c3cc4c(cc3[C@H](O)[C@H]3COC(=O)[C@@H]23)OCO4)cc(OC)c1OC	H37Rv	BACTEC	MIC		≥128 µg/mL
CC(C)COc1ccc(NC(=S)Nc2ccc(-c3ccccn3)cc2)cc1	H37RV (TB-1 -R)		MIC		>50 µg/mL
CCCCCCOc1cccc(NC(=O)OC(COCC)CN2CCCCC2)c1	My 331/88		MIC		32 µM
O=C([C@@H](O)CO)N1CC=C(c2c(F)cc(N3C[C@H](COc4ccon4)OC3=O)cc2F)CC1	H37Rv Beijing	broth dilution	MIC		0.25 µg/mL
CC1=CS(=O)(=O)OC(C)=C1	H37Rv	BACTEC	MIC bound		>12.5 µg/mL
CO/N=C1\CN(c2nc3c(cc2F)c(=O)c(C(=O)O)cn3C2CC2)CC1CN	45 strains (drug-susceptible)		MIC50		4 µg/mL
CCN1CCN(CCCCOc2ccc(/C=C3\CC/C(=C\c4ccc(OCCCCN5CCN(CC)CC5)cc4)C3=O)cc2)CC1	H37Rv	visual reading	MIC99		12.5 µM
CCCCCCCCO[C@H]1OC(CO[C@H]2O[C@H](COCc3ccccc3)[C@@H](OCc3ccccc3)[C@@H]2OCc2ccccc2)[C@@H](OC)[C@@H]1OC	H37Ra		MIC		>128 µg/mL
CC(=O)c1cccc(NC(=O)/C=C/c2ccc([N+](=O)[O-])cc2)c1	Clinical isolate	visual reading	MIC		16 µg/mL
COc1ccc2oc3cc4c(c(O)c3c(=O)c2c1CC=C(C)C)C=CC(C)(C)O4	H37Rv	BACTEC	inhibition	12.5 µg/mL	0%
O=[N+]([O-])c1cc(Sc2nc3c(Br)c(Br)c(Br)c(Br)c3[nH]2)cc([N+](=O)[O-])c1	My 331/88		MIC		8 µM
COc1ccc(/C=N/N=c2\scc(-c3cc4cc(Br)ccc4oc3=O)n2C2CCCCC2)cc1	H37Rv		inhibition	6.25 µg/mL	58%
CC(C)CCCC(C)C1CCC2C3CCC4CC5OC(C)(C)SC5CC4(C)C3CCC12C	H37Rv	BACTEC	MIC bound		>12.5 µg/mL
O=C(c1cccc(-c2ccccc2)c1)C(Cl)Cl	H37Rv		MIC		12.5 µg/mL
CC[C@H]1OC(=O)[C@H](C)[C@@H](O[C@H]2C[C@@](C)(OC)[C@@H](OC(C)=O)[C@H](C)O2)[C@H](C)[C@@H](O[C@@H]2O[C@H](C)C[C@H](N(C)C)[C@H]2O)C(C)(O)C[C@@H](C)/C(=N\OCCCC2CCCCC2)[C@H](C)[C@@H](O)[C@]1(C)O	5		MIC		3.13 µg/mL
CCSC(=S)N=Nc1c(O)n(C)c2ccccc12	H37Rv	BACTEC	MIC		≥128 µg/mL
CCCCCCCCO[C@@H]1O[C@@H]([C@H](COC)O[C@H]2O[C@H](COCc3ccccc3)[C@@H](OCc3ccccc3)[C@@H]2OCc2ccccc2)[C@H](OC)[C@H]1OC	H37Ra		MIC		>128 µg/mL
Cc1nc2[nH][nH]c(=O)c2nc1C	H37Rv	BACTEC	inhibition	12.5 µg/mL	-3%
Cn1cccc2nc(C/C(N)=N/O)nc1-2	109		MIC		125 µg/mL
FC(F)(F)C(F)(F)c1nc2c(Cl)cc(Cl)cc2[nH]1	My 331/88		MIC		16 µM
O=C(Nc1ccccc1CN1CCOCC1)c1ccc(-c2ccccc2)cc1	103471		MIC		>16 µg/mL
CC(C(N)=S)c1nc2ncccc2[nH]1	109		MIC		16 µg/mL
CCN(CC)CCCCOc1ccc(/C=C2\CC/C(=C\c3ccc(OCCCCN(CC)CC)c(OC)c3)C2=O)cc1OC	H37Rv	visual reading	MIC99		25 µM
C/C(CC/C(C)=N/N=C(\N)c1ccccn1)=N\N=C(/N)c1ccccn1	H37Rv	BACTEC	MIC bound		>12.5 µg/mL
COc1cc(/C=C2\CC/C(=C\c3ccc(OCCCCN4CCCCCC4)c(OC)c3)C2=O)ccc1OCCCCN1CCCCCC1	H37Rv	visual reading	MIC99		12.5 µM
Cn1cc(NC(=O)c2cc(NC(=O)CN=C(N)N)cn2C)c(C(=O)NCCC(=N)N)c1	H37Rv	BACTEC	inhibition	128 µg/mL	100%
CCOC(=O)c1[nH]cc(C)c1-c1ccc2c(-c3ccccc3)nc3ccccc3n12	H37Rv		EC50		<12.5 µg/mL
COc1cc(/C=N/N=c2/scc(-c3cc4cc(Br)ccc4oc3=O)n2C2CCCCC2)ccc1O	H37Rv		inhibition	6.25 µg/mL	13%
COc1ccc2c(c1)CC1c3c(cc4c(c3-2)OCO4)CCN1C	H37Rv	BACTEC	MIC		≥12.5 µg/mL
CC[C@@H](CO)NCCN[C@@H](CC)CO	Harlingen	broth dilution	MIC		8 µg/mL
COc1cc(/C=C2\CC/C(=C\c3ccc(OCCCN4CCCCCC4)c(OC)c3)C2=O)ccc1OCCCN1CCCCCC1	H37Rv	visual reading	MIC99		12.5 µM
CSC(=S)N(C)c1nc(=[N+](C)C)ss1.O=S(=O)([O-])F	H37Rv	BACTEC	MIC bound		>128 µg/mL
O=c1oc2ccc(Br)cc2cc1-c1cs/c(=N/N=C/c2ccc(Br)cc2)n1C1CCCCC1	H37Rv		inhibition	6.25 µg/mL	6%
NC(=O)N=Nc1ccc(NNC(N)=O)cc1	H37Rv	BACTEC	MIC bound		>12.5 µg/mL
CCCCOc1ccc(NC(=O)OCCN2CCCCC2)cc1	My 331/88		MIC		125 µM
O=[N+]([O-])c1ccc(Sc2nc3c(Cl)cc(Cl)cc3[nH]2)cc1	My 331/88		MIC		2 µM
COC(=O)[C@H](Cc1cn(C(O)(NC(=O)OCc2ccccc2)C(F)(F)F)cn1)NC(=O)[C@@H](NC(=O)[C@H](CC(C)C)NC(=O)[C@@H](CSC(c1ccccc1)(c1ccccc1)c1ccccc1)NC(=O)OCc1ccccc1)C(C)C	H37Rv	resazurin	MIC bound		>6.25 µg/mL
CCCCCCCOc1ccccc1NC(=O)OC(COCC)CN1CCCCC1	My 331/88		MIC		62.5 µM
Cc1c[nH]c(C(=O)O)c1-c1ccc2c(-c3ccccc3)nc3ccccc3n12	H37Rv		EC50		>12.5 µg/mL
COc1cc(N/N=C/c2ccccc2O)ncn1	H37Rv	visual reading	MIC		1 µg/mL
Nc1ccc(C(=O)O)c(O)c1	H37Rv	resazurin	MIC		5 µg/mL
O=C(N/N=C/c1cccs1)c1ccc(Oc2ccccc2)cc1	H37Rv	resazurin	MIC		1.69 µg/mL
O=C(Nc1ccc(CN2CCOCC2)cc1)c1ccc(Cl)cc1	103471		MIC		>16 µg/mL
CCCCCCCCO[C@@H]1OC(C(CO[C@@H]2O[C@@H]([C@H](O)CO)[C@H](O)[C@H]2O)OC(C)=O)[C@H](OC(C)=O)[C@H]1OC(C)=O	H37Ra		MIC		>128 µg/mL
O=C(c1ccc(-c2cc(Cl)c(O)c(Cl)c2)cc1)C(Cl)Cl	H37Rv		MIC		6.25 µg/mL
CC(=O)/C(=C/C=C/c1ccccc1)[N+](=O)[O-]	H37Rv	visual reading	MIC		16 µg/mL
COc1ccc(/C=C2\SC(=S)N(CCCCNc3ccnc4cc(Cl)ccc34)C2=O)c2ccccc12	H37Rv	agar	MIC		6.25 µM

10 of the rows above, restated:

compound,strain,read by,endpoint,dose,result
CCn1c2ccccc2c2nnc(NCCCO)nc21,H37Rv,resazurin,inhibition,6.25 µg/mL,38%
O=C(c1ccc(Oc2ccc(C(=O)C(Br)Br)cc2)cc1)C(Br)Br,H37Rv,,MIC,,25 µg/mL
CCCCCCOc1cccc(NC(=O)OC(COCC)CN2CCCCC2)c1,My 331/88,,MIC,,32 µM
COc1ccc2[nH]c(=O)c(CO)c(CO)c2c1,H37Rv,BACTEC,inhibition,12.5 µg/mL,0%
COc1cc(N/N=C/c2ccccc2O)ncn1,H37Rv,visual reading,MIC,,1 µg/mL
CCCCCCCCO[C@@H]1O[C@@H]([C@H](COC)O[C@H]2O[C@H](COCc3ccccc3)[C@@H](OCc3ccccc3)[C@@H]2OCc2ccccc2)[C@H](OC)[C@H]1OC,H37Ra,,MIC,,>128 µg/mL
CCSC(=S)N=Nc1c(O)n(C)c2ccccc12,H37Rv,BACTEC,MIC,,≥128 µg/mL
FC(F)(F)C(F)(F)c1nc2c(Cl)cc(Cl)cc2[nH]1,My 331/88,,MIC,,16 µM
FC(F)(F)C(F)(F)C(F)(F)c1nc2c(Br)c(Br)c(Br)c(Br)c2[nH]1,My 331/88,,MIC,,8 µM
COc1ccc2oc3cc4c(c(O)c3c(=O)c2c1CC=C(C)C)C=CC(C)(C)O4,H37Rv,BACTEC,inhibition,12.5 µg/mL,0%

MIC bound: limit read from a one-dose screen. Rows are shuffled and stem from different studies. Percent inhibition refers to the dose given; in toxicity tests it is the harm to the cells. An empty or dashed field is not shown. ECn: concentration that inhibits the pathogen or its effect by n%.